{
  "source": "paper PMC7181641",
  "about": "“Aspartate aminotransferase Rv3722c governs aspartate-dependent nitrogen metabolism in Mycobacterium tuberculosis” (Nature Communications, 2020)",
  "key": {"[1]": {"tested_on": "Nc1ccccc1C(=O)C[C@H](N)C(=O)O", "test": "purified protein", "details": "pH 7.4; 37.0 °C"}, "N[C@@H](CC(=O)O)C(=O)O": {"tested_on": "N[C@@H](CC(=O)O)C(=O)O", "test": "purified protein", "details": "pH 7.4; 37.0 °C"}},
  "data": [
    {"substance": "Rv3722c (Mycobacterium tuberculosis H37Rv)", "values": [
      {"measurement": "Km", "setting": "[1]", "value": 29.4, "unit": "mM"},
      {"measurement": "Km", "setting": "N[C@@H](CC(=O)O)C(=O)O", "value": 2.34, "unit": "mM"}
    ]}
  ]
}
